## Screening data, single-dose tests

Data taken from ChEMBL document CHEMBL3988442, “University of Dundee, Small-Polar-MMV Screening Library” (2021).

Mtb glucose medium: 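Phenotypic screen: M. tuberculosis growth, glucose 7H9 medium, 3 days; the read-out is not stated. Tested at 500 µM. Direction is inferred from retests: higher values go with more growth inhibition. Size under these conditions: about 18,000 compounds, about 1,400 of them at 50% or above in at least one test.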
Mtb cholesterol medium: 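Phenotypic screen: M. tuberculosis growth, cholesterol and DPPC medium, 4 days; the read-out is not stated. Tested at 500 µM. The record gives no direction; compounds that gave an IC50 in retests scored well above the rest, so higher reads as more growth inhibition. Of about 18,000 compounds tested this way, about 900 (5%) reached 50% or more in at least one test.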

Values are the deposited “Percent Effect”, in %.
The record does not define 0% and 100%; most values in the screen are far below 50% and negative numbers occur (in some assays of this library far below -100).
The entries come from a sample that favours strong results.

CCN(CC)CCNC(=O)c1cc(C2CC2)[nH]n1 gave Mtb glucose medium: 17.27%.
CN1CCCC(N(C)S(=O)(=O)Cc2cccc(F)c2)C1 (stereo unspecified) gave Mtb glucose medium: 14.42%.
NCC(=O)N(CC1CCCCC1)C1CC1 gave Mtb glucose medium: 15.01%.
COC(CN)C1CCCC1 (stereo unspecified) gave Mtb glucose medium: -2.901%.
CNCc1ccc(C)cn1 gave Mtb glucose medium: 1.176%.
O=C(c1cccc2ncccc12)N1CCCC1 gave Mtb glucose medium: -3.396%.
CCC(C)Oc1cc(CN)ccn1 (stereo unspecified) gave Mtb glucose medium: -5.909%; Mtb cholesterol medium: -11.63%.
NC1CCN(C2CCOCC2)CC1 gave Mtb glucose medium: -9.134%.
NCCCN(C(=O)C1CCC1)C1CC1 gave Mtb cholesterol medium: 13.28%.
CCN1CCN(CC(C)CNc2ccccn2)CC1 (stereo unspecified) gave Mtb glucose medium: -5.252%.
CCCNC(=O)c1cccc(CN)c1 gave Mtb cholesterol medium: 2.574%.
CCCC1COCCN1Cc1cc(C)n[nH]1 (stereo unspecified) gave Mtb cholesterol medium: 5.366%.
CN1C(=O)[C@H]2CN(Cc3ccsc3)C[C@H]2C1=O gave Mtb glucose medium: 3.554%.
CNC(=O)c1ccc(S(=O)(=O)NCCCOC)cc1 gave Mtb cholesterol medium: 4.904%.
COc1cc(C)c(NC(=O)C(C)C)cc1OC gave Mtb glucose medium: -2.439%.
CCCn1ccnc1-c1nc2c([nH]1)CCCNC2=O gave Mtb glucose medium: -11.23%.
c1c[nH]c(C2CCCNC2)n1 (stereo unspecified) gave Mtb cholesterol medium: -10.09%.
c1ncn(C2CCCCC2)c1CN1CCNCC1 gave Mtb glucose medium: -6.853%.
CN1CC(NC(=O)COc2cccnc2)CCC1=O (stereo unspecified) gave Mtb glucose medium: -0.6261%.
CS(=O)(=O)CCNC(=O)NCc1ccc(C#N)cc1F gave Mtb cholesterol medium: -15.91%.
CO[C@H]1CNCC1NC(=O)Cc1cccc(F)c1F (stereo partly specified) gave Mtb glucose medium: -9.442%.
O=C(NCc1cccc(Cn2cncn2)c1)C1CC1 gave Mtb glucose medium: 8.761%.
Brc1cccc2c1CNCCO2 gave Mtb glucose medium: 51.78%; Mtb cholesterol medium: 39.8%.
Cc1ccc(F)cc1C(=O)N[C@@H]1CCNC[C@H]1O gave Mtb cholesterol medium: 4.954%.
CN(C)c1ncccc1C(=O)OCCN1CCOC1=O gave Mtb glucose medium: 9.962%.
O=S(=O)(C1CC1)N1CCC(Nc2ccccn2)CC1 gave Mtb glucose medium: 7.708%; Mtb cholesterol medium: -9.664%.
FC(F)(F)c1ccc(NCCNCc2cc[nH]n2)nc1 gave Mtb glucose medium: 10.45%; Mtb cholesterol medium: 9.179%.
C=C(C)CN1CCC(NC(=O)NCCS(C)(=O)=O)CC1 gave Mtb cholesterol medium: 2.758%.
O=C(CSc1ncccn1)Nc1ccc2c(c1)OCO2 gave Mtb glucose medium: 9.892%.

Repeated from the top, 4 entries:

{"structure": "CCN(CC)CCNC(=O)c1cc(C2CC2)[nH]n1", "Mtb glucose medium": 17.27}
{"structure": "CN1CCCC(N(C)S(=O)(=O)Cc2cccc(F)c2)C1", "stereo": "stereo unspecified", "Mtb glucose medium": 14.42}
{"structure": "NCC(=O)N(CC1CCCCC1)C1CC1", "Mtb glucose medium": 15.01}
{"structure": "COC(CN)C1CCCC1", "stereo": "stereo unspecified", "Mtb glucose medium": -2.901}